Compound potency records, mixed from different reports. Data source: NIAID ChemDB in PubChem.

All rows: tests in culture; organism: Mycobacterium tuberculosis

MIC50, MIC90 and the like: level of inhibition, or share of isolates inhibited. Fold resistance has wild type as its base. Inhibition is in % at the dose shown (toxicity tests: loss of growth or viability). An empty or dashed field is not shown. MIC bound: limit read from a one-dose screen. Neighbouring rows are from separate reports. ECn: concentration that inhibits the pathogen or its effect by n%.

SMILES,read by,tested at,endpoint,setting,mutations,strain,result
NC(=O)c1nccnc1Cl,BACTEC,-,MIC,-,-,H37Rv,≥12.5 µg/mL
C=CCOc1cc2oc3cc(O)c(CCC(C)C)c(O)c3c(=O)c2c(CCC(C)C)c1OC,resazurin,-,MIC,-,-,M11,3.12 µg/mL
CC(C)Cn1c[n+](Cc2ccc([N+](=O)[O-])cc2)c2c1C(=O)c1ccccc1C2=O,resazurin,6.25 µg/mL,inhibition,-,-,H37Rv,100%
NC[C@H]1O[C@H](O[C@H]2[C@H](O)[C@@H](O[C@H]3O[C@H](CO)[C@@H](O)[C@H](N)[C@H]3O)[C@H](N)C[C@@H]2N)[C@H](O)[C@@H](O)[C@@H]1O,-,-,MIC,-,-,Isolate 17,2 µg/mL
O=C(O)C1C2C=CC(O2)C1C(=O)NCc1cccnc1,BACTEC,12.5 µg/mL,inhibition,-,-,H37Rv,14%
Cc1ccc2oc(=O)n(-c3ccc(Br)cc3)c(=O)c2c1,-,-,MIC,-,-,CNCTC MY331/88,16 µM
Fc1ccc(-c2c(C(c3ccccc3)n3ccnc3)cnn2-c2ccc(F)cc2)cc1,-,-,MIC90,-,-,ATCC 35828 (pyrazinamide-resistant),≥100 µM
Cc1ccc2oc(=O)n(-c3ccc(Cl)c(Cl)c3)c(=O)c2c1,-,-,MIC,-,-,CNCTC MY331/88,16 µM
Cn1c(=O)c2[nH]c(=O)c(=O)[nH]c2n(C)c1=O,BACTEC,-,MIC bound,-,-,H37Rv,>12.5 µg/mL
COc1ccc2oc(=O)n(-c3ccc(Cl)cc3)c(=S)c2c1,-,-,MIC,14 d,-,My 331/88,8 µM
Clc1ccccc1-c1c(C(c2ccccc2)n2ccnc2)cnn1-c1ccccc1,-,-,MIC50,-,-,ATCC 35822 (isoniazid-resistant),44.1 µM
Nc1ccc2c(N3CCCCC3)cc(N3CCCCC3)nc2n1,BACTEC,-,EC50,-,-,H37Rv,<6.25 µg/mL
CC[C@@H](CO)NCCN[C@@H](CC)CO,resazurin,-,MIC,-,Drug-resistant,ATCC 2794,1.2 µM
CC1=C(C(=O)Nc2ccccc2Cl)C(c2ccc(Cl)cc2)C(C(=O)Nc2ccccc2Cl)=C(C)N1,-,-,EC50,-,-,H37Rv,>2.5 µg/mL
O=[N+]([O-])c1cc2c(ccc3ccccc32)o1,resazurin,-,MIC bound,-,-,H37Rv,<6.25 µg/mL
COc1ccc(C2C(C(=O)Nc3ccccc3Cl)=C(C)NC(C)=C2C(=O)Nc2ccccc2Cl)cc1,-,-,EC50,-,-,H37Rv,>2.5 µg/mL
C[C@@H]1CN(c2c(F)c(N)c3c(=O)c(C(=O)O)cn(C4CC4)c3c2F)C[C@H](C)N1,-,-,MIC,-,-,Isolate 8,2 µg/mL
CCOc1cc2oc3cc(OCC)c(OC)c(CCC(C)C)c3c(=O)c2c(O)c1CCC(C)C,resazurin,-,MIC,-,-,H37Ra,>200 µg/mL
NNC(=O)c1ccncc1,-,-,MIC,-,-,Isolate HN1993 (katG A110V mutation),0.19 µg/mL
Clc1ccc(-n2cc(CSC3c4ccccc4-c4ccccc43)nn2)cc1Cl,broth dilution,-,MIC99,-,-,H37Rv,>236 µM
Fc1ccccc1-n1ncc(C(c2ccccc2)n2ccnc2)c1-c1ccccc1,-,-,MIC90,-,-,ATCC 35820 (streptomycin-resistant),≥100 µM
Cc1ccc2c(N3CCOCC3)c(Cc3ccccc3)c(N3CCCCC3)nc2n1,BACTEC,6.25 µg/mL,inhibition,-,-,H37Rv,20%
CN1c2ccccc2Oc2ccc3ccccc3c21,BACTEC,12.5 µg/mL,inhibition,-,-,H37Rv,60%
COc1c(OC(C)=O)cc2oc3cc(O)c(CCC(C)C)c(O)c3c(=O)c2c1CCC(C)C,resazurin,-,MIC,-,-,H37Ra,6.25 µg/mL
CC1=C(C(=O)Nc2ccc([N+](=O)[O-])cc2)C(c2ccc(Cl)cc2Cl)C(C(=O)Nc2ccc([N+](=O)[O-])cc2)=C(C)N1,-,-,EC50,-,-,H37Rv,<2.5 µg/mL
CC(O)C(NC(=O)c1cnc(OCc2ccccc2)nc1N)C(=O)O,BACTEC,12.5 µg/mL,inhibition,-,-,H37Rv,-10%
O=c1oc2ccc(Cl)cc2c(=O)n1-c1cccc([N+](=O)[O-])c1,-,-,MIC,-,-,CNCTC MY331/88,8 µM
O=C1c2cc(Cl)ccc2-n2c1nc1ccccc1c2=O,-,-,MIC,-,-,H37Rv,<0.2 µg/mL
Fc1ccc(-n2cc(CSC3c4ccccc4-c4ccccc43)nn2)cc1,broth dilution,-,MIC99,-,-,H37Rv,66.94 µM
OCC1(CO)CSSC1,BACTEC,-,MIC,-,-,H37Rv,≥12.5 µg/mL
COc1c(OC(=O)c2ccccc2)cc2oc3cc(O)c(CCC(C)C)c(O)c3c(=O)c2c1CCC(C)C,resazurin,-,MIC,-,-,H37Ra,3.12 µg/mL
O=C1c2cc(Cl)nnc2Oc2ccc(Cl)cc2N1CC1CCCCC1,BACTEC,-,EC50,-,-,H37Rv,<12.5 µg/mL
O=C(O)CCCCCCCCCCC1C=CCC1,BACTEC,12.5 µg/mL,inhibition,-,-,H37Rv,27%
Cc1ccc2c(Cl)c(C)c(N3CCCCC3)nc2n1,BACTEC,6.25 µg/mL,inhibition,-,-,H37Rv,17%
CCCCCCCCS(=O)(=O)CC(N)=O,-,-,MIC,-,-,H37Rv,≤6.25 µg/mL
Fc1ccc2oc(=S)n(-c3cccc(Cl)c3)c(=S)c2c1,-,-,MIC,21 d,-,My 331/88,4 µM
CCOC(=O)CCC(NC(=O)C(CCOC(=O)CC)NC(=O)C(Cc1ccc([N+](=O)[O-])cc1)NC(C)=O)C(=O)NNC(=O)OC(C)(C)C,BACTEC,-,MIC bound,-,-,H37Rv,>12.5 µg/mL
O=C1c2cc(F)ccc2-n2c1nc1c(F)cccc1c2=O,-,-,MIC,-,-,H37Rv,<0.4 µg/mL
CC1(C)S[C@@H]2[C@H](NC(=O)[C@H](N)c3ccccc3)C(=O)N2[C@H]1C(=O)O,-,-,MIC,-,-,IRZ,>92 µM
Fc1ccc(-n2ncc(C(c3ccccc3)n3ccnc3)c2-c2ccccc2)c(F)c1,-,-,MIC90,-,-,ATCC 35828 (pyrazinamide-resistant),≥100 µM
COc1ccc2c(=O)n(-c3ccc(Cl)c(Cl)c3)c(=O)oc2c1,-,-,MIC,-,-,CNCTC MY331/88,16 µM
NNC(=O)c1ccncc1,-,-,MIC,-,-,Isolate 3,8 µg/mL
CCCOc1cc2oc3cc(O)c(CCC(C)C)c(O)c3c(=O)c2c(CCC(C)C)c1OC,resazurin,-,MIC,-,MDR,M5,3.12 µg/mL
COc1cccc2c(=O)n3c(nc12)C(=O)c1cc(F)ccc1-3,-,-,MIC,-,-,MDR 10038,<0.3 µg/mL
Cc1ccc2c(c1)Oc1nnc(Cl)cc1C(=O)N2Cc1ccccc1,BACTEC,12.5 µg/mL,inhibition,-,-,H37Rv,59%
CN[C@@H]1[C@H](O[C@H]2[C@H](O[C@H]3[C@H](O)[C@@H](O)[C@H](N=C(N)N)[C@@H](O)[C@@H]3N=C(N)N)O[C@@H](C)[C@]2(O)C=O)O[C@@H](CO)[C@H](O)[C@H]1O,turbidity,-,MIC,-,Spiroindene-resistant,TB376,1 µM
CC1COc2c(N3CCN(C)CC3)c(F)cc3c(=O)c(C(=O)O)cn1c23,-,-,MIC50,-,-,ATCC 35837 (ethambutol-resistant),1.1 µM
COc1cc2oc3cc(O)c(CCC(C)C)c(O)c3c(=O)c2c(CCC(C)C)c1OC,resazurin,-,MIC,-,-,M16,3.12 µg/mL
c1cc2c(s1)CCOC21CCN(Cc2ccc3c(c2)OCCO3)CC1,fluorescence,-,fold resistance,-,MmpL3: Ile292Ser,H37Rv,≥33.3
COc1ccc2c(=O)n(-c3ccc([N+](=O)[O-])cc3)c(=O)oc2c1,-,-,MIC,-,-,CNCTC MY331/88,16 µM
CCNc1cc(N)[n+](CC)c2n[nH]c(N)c12,BACTEC,-,MIC,-,-,H37Rv,≥12.5 µg/mL
Cc1ccc2c(c1)N(CC1CCCCC1)C(=O)c1cc(Cl)nnc1O2,BACTEC,12.5 µg/mL,inhibition,-,-,H37Rv,66%
CCC(O)CN1CCC2(C=C(c3nc(-c4ccc(OC)cc4)no3)c3ccccc32)CC1,resazurin,-,MIC,-,-,H37Rv,0.4 µM
COc1ccc2c(=O)n(-c3ccc(C)cc3)c(=O)oc2c1,-,-,MIC,-,-,CNCTC MY331/88,32 µM
Cc1cccc(/C=N/NC(=S)N(C)C)n1.[Cl][Cu][Cl],-,-,MIC90,-,-,H37Rv,3.13 µM
Fc1ccc(-n2ncc(C(c3ccccc3)n3ccnc3)c2-c2ccccc2)cc1,-,-,MIC50,-,-,ATCC 35822 (isoniazid-resistant),≥100 µM
Cc1ccc2nc3n(c(=O)c2c1)-c1ccc(F)cc1C3=O,-,-,MIC,-,-,H37Rv,1 µg/mL
CCCCCCCCN1C(=O)c2cc(Cl)nnc2Oc2ccc(C)cc21,BACTEC,-,EC50,-,-,H37Rv,>12.5 µg/mL
Cc1ccc(-n2c(=S)oc3ccc(F)cc3c2=S)cc1,-,-,MIC,21 d,-,My 331/88,2 µM
CO[C@H]1/C=C/O[C@@]2(C)Oc3c(C)c(O)c4c(O)c(c(/C=N/N5CCN(C6CCCC6)CC5)c(O)c4c3C2=O)NC(=O)/C(C)=C\C=C\[C@H](C)[C@H](O)[C@@H](C)[C@@H](O)[C@@H](C)[C@H](O)[C@@H]1C,-,-,MIC,-,-,Isolate 880902 rifampicin-resistant,>32 µg/mL
S=C1SCN(c2ccc(Br)cc2)CN1c1ccc2[nH]c(=S)sc2c1,BACTEC,-,MIC bound,-,-,H37Rv,>12.5 µg/mL
O=c1oc2ccc(Br)cc2c(=S)n1-c1cccc(F)c1,-,-,MIC,21 d,-,My 331/88,2 µM
NC(=O)c1cnccn1,-,-,MIC,-,-,ATCC 35828 niacin-positive,>2048 µg/mL
O=[N+]([O-])c1cc(F)ccc1-n1cc(CS(=O)(=O)C2c3ccccc3-c3ccccc32)nn1,broth dilution,-,MIC99,-,-,Specimen 192,>222 µM
COC(=O)C1C(O)C(C)C(=O)C(C)/C=C\C=C(C)C(=O)Nc2c(C)c(OC(C)=O)c3c(c2O)C(=O)C(C)=C2OCOC(=C23)/C(C)=C\C(C)(O)C(O)C(C)C1O,BACTEC,12.8 µg/mL,inhibition,-,-,H37Rv,87%
CCOC(=O)N1CCN(c2ccc3cc(-c4ccccc4)c(=O)[nH]c3n2)CC1,BACTEC,-,EC50,-,-,H37Rv,>6.25 µg/mL
CC1=C(C(=O)Nc2ccccc2Cl)C(c2ccc(Cl)cc2Cl)C(C(=O)Nc2ccccc2Cl)=C(C)N1,-,-,EC50,-,-,H37Rv,>2.5 µg/mL
O=S(=O)(Cc1cn(-c2ccc(C(F)(F)F)cc2)nn1)C1c2ccccc2-c2ccccc21,broth dilution,-,MIC99,-,-,Specimen 192,110 µM
Fc1ccccc1-c1c(C(c2ccccc2)n2ccnc2)cnn1-c1ccccc1,-,-,MIC90,-,-,ATCC 35828 (pyrazinamide-resistant),≥100 µM
CCOC(=O)c1sc(N)nc1-c1ccccc1,BACTEC,-,MIC bound,-,-,H37Rv,>6.25 µg/mL
CC1COc2c(N3CCN(C)CC3)c(F)cc3c(=O)c(C(=O)O)cn1c23,resazurin,-,MIC,-,Ethambutol-resistant,17003,0.14 µM
O=c1oc2ccc(Br)cc2c(=O)n1-c1cccc(Cl)c1,-,-,MIC,-,-,CNCTC MY331/88,4 µM
CN(C)c1ccc(Nc2c3ccccc3nc3ccccc23)cc1,resazurin,-,MIC bound,-,-,H37Rv,>6.25 µg/mL
Cc1ccc(-c2noc(C3=CC4(CCN(CC5CCCO5)CC4)c4ccccc43)n2)cn1,resazurin,-,MIC,-,Streptomycin-resistant,136570,1.56 µM
COc1c(OCc2ccccc2)cc2oc3cc(O)c(CCC(C)C)c(O)c3c(=O)c2c1CCC(C)C,resazurin,-,MIC,-,-,H37Ra,6.25 µg/mL
COc1ccc2oc(=O)n(-c3ccccc3)c(=O)c2c1,-,-,MIC,-,-,CNCTC MY331/88,250 µM
CCc1c2oc(C(=O)c3ccc(Cl)cc3)cc2n2ccccc12,BACTEC,-,MIC bound,-,-,H37Rv,>12.5 µg/mL
COc1ccc(-c2noc(C3=CC4(CCN(CC5CCCO5)CC4)c4ccccc43)n2)cc1,turbidity,-,MIC,-,Spiroindene-resistant,H37Rv,0.2 µM
O=c1oc2ccc(Br)cc2c(=O)n1-c1ccc(Cl)c(Cl)c1,-,-,MIC,-,-,CNCTC MY331/88,4 µM
O=C(NNC(=S)NC1OC(CO)C(O)C(O)C1O)c1cccc(C(=O)NNC(=S)NC2OC(CO)C(O)C(O)C2O)n1,BACTEC,-,MIC bound,-,-,H37Rv,>12.5 µg/mL
CC(=O)c1c(OCCO)cc2oc3cc(O)c(CCC(C)C)c(O)c3c(=O)c2c1CCC(C)C,resazurin,-,MIC,-,-,H37Ra,1.56 µg/mL
CCOc1ccc(NC(=S)/N=C/C(C(=O)Nc2ccccc2C)=C(\C)O)cc1,BACTEC,-,MIC bound,-,-,H37Rv,<6.25 µg/mL
c1ccc(-c2c(C(c3ccccc3)n3ccnc3)cnn2-c2ccccc2)cc1,-,-,MIC50,-,-,ATCC 35822 (isoniazid-resistant),43.3 µM
COc1cc2oc(=O)ccc2cc1C1OC(=O)C2OC21C,BACTEC,-,MIC bound,-,-,H37Rv,>12.5 µg/mL
Cc1cccc2nc3n(c(=O)c12)-c1ccccc1C3=O,-,-,MIC,-,-,MDR 10038,2 µg/mL

For reference, 5 entries again:

| SMILES | read by | tested at | endpoint | setting | mutations | strain | result |
|---|---|---|---|---|---|---|---|
| CCOC(=O)N1CCN(c2ccc3cc(-c4ccccc4)c(=O)[nH]c3n2)CC1 | BACTEC | - | EC50 | - | - | H37Rv | >6.25 µg/mL |
| Cc1ccc2oc(=O)n(-c3ccc(Cl)c(Cl)c3)c(=O)c2c1 | - | - | MIC | - | - | CNCTC MY331/88 | 16 µM |
| Fc1ccc(-n2ncc(C(c3ccccc3)n3ccnc3)c2-c2ccccc2)c(F)c1 | - | - | MIC90 | - | - | ATCC 35828 (pyrazinamide-resistant) | ≥100 µM |
| CC1COc2c(N3CCN(C)CC3)c(F)cc3c(=O)c(C(=O)O)cn1c23 | resazurin | - | MIC | - | Ethambutol-resistant | 17003 | 0.14 µM |
| CC(=O)c1c(OCCO)cc2oc3cc(O)c(CCC(C)C)c(O)c3c(=O)c2c1CCC(C)C | resazurin | - | MIC | - | - | H37Ra | 1.56 µg/mL |